{"sequences": {"note": "Protein sequences, listed by entry. Tags and fused reporters are not part of them.", "UniProt P0A0K8, whole entry": "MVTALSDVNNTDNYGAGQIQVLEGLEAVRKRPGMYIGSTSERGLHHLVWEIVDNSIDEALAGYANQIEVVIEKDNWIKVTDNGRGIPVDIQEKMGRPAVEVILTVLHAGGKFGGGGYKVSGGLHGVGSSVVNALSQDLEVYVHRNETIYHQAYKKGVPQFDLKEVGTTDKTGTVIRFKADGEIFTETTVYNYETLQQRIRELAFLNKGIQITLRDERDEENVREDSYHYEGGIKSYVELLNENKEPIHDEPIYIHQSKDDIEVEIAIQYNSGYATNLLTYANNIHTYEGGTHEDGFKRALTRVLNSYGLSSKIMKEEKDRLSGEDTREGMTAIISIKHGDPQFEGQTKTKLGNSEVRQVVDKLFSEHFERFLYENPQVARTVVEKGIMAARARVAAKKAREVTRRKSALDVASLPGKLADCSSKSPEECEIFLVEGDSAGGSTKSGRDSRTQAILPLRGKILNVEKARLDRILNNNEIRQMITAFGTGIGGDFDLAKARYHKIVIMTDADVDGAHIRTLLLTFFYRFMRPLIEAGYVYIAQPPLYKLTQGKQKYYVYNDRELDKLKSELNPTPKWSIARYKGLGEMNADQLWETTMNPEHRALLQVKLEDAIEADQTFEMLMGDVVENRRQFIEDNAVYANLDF", "UniProt P20831, whole entry": "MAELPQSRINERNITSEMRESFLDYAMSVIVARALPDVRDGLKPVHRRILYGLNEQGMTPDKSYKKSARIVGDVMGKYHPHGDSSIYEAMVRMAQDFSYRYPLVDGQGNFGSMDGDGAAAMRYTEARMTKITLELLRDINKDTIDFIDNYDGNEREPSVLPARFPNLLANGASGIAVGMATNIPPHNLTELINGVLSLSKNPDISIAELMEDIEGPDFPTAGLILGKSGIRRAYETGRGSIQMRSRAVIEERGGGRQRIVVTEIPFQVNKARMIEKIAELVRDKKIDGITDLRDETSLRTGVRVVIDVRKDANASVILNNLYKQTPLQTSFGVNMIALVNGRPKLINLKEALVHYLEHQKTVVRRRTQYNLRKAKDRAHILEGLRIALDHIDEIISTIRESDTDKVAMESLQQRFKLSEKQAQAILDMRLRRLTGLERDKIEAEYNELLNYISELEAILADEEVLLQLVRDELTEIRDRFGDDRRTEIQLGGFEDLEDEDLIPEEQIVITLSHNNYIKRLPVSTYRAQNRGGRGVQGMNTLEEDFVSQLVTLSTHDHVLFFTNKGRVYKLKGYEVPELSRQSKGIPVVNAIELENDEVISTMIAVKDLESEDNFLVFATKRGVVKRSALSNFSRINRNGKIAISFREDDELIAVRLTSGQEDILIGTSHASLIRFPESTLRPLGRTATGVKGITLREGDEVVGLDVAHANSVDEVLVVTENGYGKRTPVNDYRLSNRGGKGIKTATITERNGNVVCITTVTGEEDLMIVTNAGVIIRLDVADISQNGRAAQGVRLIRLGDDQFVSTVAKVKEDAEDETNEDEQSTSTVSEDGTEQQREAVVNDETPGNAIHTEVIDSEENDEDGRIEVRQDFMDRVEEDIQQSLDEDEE"}, "source": "patent US10004701B2", "about": "“Methods and compositions for treating infection” (UNIVERSITY OF ROCHESTER, priority 2012, dated 2018)", "key": {"[1]": {"system": "S. aureus", "experiment": "Minimum Inhibitory Concentration (MIC) testing, terfenadine study", "type": "cell-based", "conditions": "16 h, MHB, strain not given"}, "[2]": {"biological_target": "S. aureus DNA gyrase (Staphylococcus aureus, UniProt P0A0K8+P20831)", "experiment": "S. aureus DNA gyrase supercoiling assay (TopoGEN)", "type": "biochemical", "conditions": "37° C. 30 min"}}, "note": "Structures were worked out from names or drawings and are uncertain.", "data": [{"compound": "CC1(c2ccc(CCN3CCC(C(O)(c4ccccc4)c4ccccc4)CC3)cc2)COC1", "values": [{"measurement": "MIC", "setting": "[1]", "value": ">256", "unit": "mg/L"}, {"measurement": "Gyrase IC50", "setting": "[2]", "value": ">333", "unit": "mg/L"}]}, {"compound": "OC(c1ccccc1)(c1ccccc1)C1CCN(CCc2ccc(C(F)(F)F)cc2)CC1", "values": [{"measurement": "MIC", "setting": "[1]", "value": 16, "unit": "mg/L"}, {"measurement": "Gyrase IC50", "setting": "[2]", "value": 16.67, "unit": "mg/L"}]}, {"compound": "CC(C)(C)c1ccc(C(O)CCN2CCC(C(O)(c3ccccc3)c3ccccc3)CC2)cc1", "note": "(stereo not drawn)", "values": [{"measurement": "MIC", "setting": "[1]", "value": 8, "unit": "mg/L"}, {"measurement": "Gyrase IC50", "setting": "[2]", "value": 133.33, "unit": "mg/L"}]}]}
